Experimental data reported in US7572612B2, “Method of production of para-hydroxycinnamic acid using a thermostable TAL enzyme” (E.I. du Pont de Nemours and Company, priority 2006, dated 2009).

Assay: Conversion of tyrosine to pHCA in 3 L Applikon BioReactors
Type: cell-based, E. coli
Conditions: pH 9.9
Experimental: The following experiment was performed in an Applikon BioReactor (9.0 liter working volume) where pH and temperature of the reaction were controlled. Both strains DPD5154 and DPD5124 were tested. The E. coli DPD5154 (PcTAL) cells were produced by the protocol described in Example 6, with a final cell density of […]. In the case of E. coli DPD5124 (RgTAL) the inoculum was grown in a 2.0 L shake flask containing 500 ml of the following medium (in grams per liter) KH2PO4 (2.0 g/L), K2HPO4 (13.0 g/L), (NH4)2HPO4 […]), MgSO4.7H2O (1.0 g/L), yeast extract (2.0 g/L), Ferric Ammonium Citrate (0.1 g/L). The pH was adjusted to 7.0 and the medium steam sterilized. Glucose (30.0 g/L) and ampicillin (50 mg/L) were added post-sterilization. The culture was grown in 2 L flasks with 500 mL medium, at 35° C. to about OD550 of 2.0 and then the entire contents was used to inoculate the fermentor. The fermentor was controlled at 36° C., pH 6.8, with the dissolved oxygen (DO) tension of 25% controlled with cascade of agitation and air flow with agitation from 400 to 1000 rpm and airflow from 2 to 16 SLPM. The overhead pressure was 0.5. When the glucose level reached below 4.0 g/L a glucose feed program with 60% glucose (w/w) was initiated, consisting of: first 4 h at 0.36 g/min, next 12 h at 0.73 g/min and to the end of run at 0.56 g/min. When the culture reached an OD550 of 35, arabinose was added to final concentration of 0.5 g/L The fermentation was terminated 20 h after arabinose addition. The final cell density in the fermentation broth was an OD550 of 90 and the final volume was about 9 liter. The g dcw/L was determined assuming that 1.0 OD550 contained 0.33 g dcw/L:=30 g dcw/L.
The cells were harvested by centrifugation and stored as a frozen paste at −80° C. until use. Before use, the cell paste was thawed and suspended in the saline solution to about 10% w/v. The cell dry weight concentration was calculated from [cells wet weight]×[% solids] where [% solids] was determined after drying the cells in a vacuum oven, at 90° C. for >16 h.
The tyrosine used was AR grade (J. T. Baker). It was suspended in distilled, deionized water at 33% w/w concentration, homogenized in a blender and added to about 50 g/L final concentration. Reactions were conducted in 3 L Applikon BioReactors (Applikon, De Brauwweg 13, The Netherlands), with a 1-2 L working volume. The set points for the control systems were pH 9.9 with automatic addition of NaOH 25% w/v with agitation at 400 rpm. The bioconversion was typically done by adding the tyrosine suspension to the appropriate concentration, adjusting the pH and temperature to the determined set point, adding the cell suspension to the appropriate concentration, and DI water to the final volume.

B1: PcTAL: thermostable tyrosine ammonia lyase (PAL/TAL) enzyme from Phanerochaete chrysosporium, SEQ ID NO:1 (protein, listed as Phanerochaete chrysosporium)
chain: MPSRIDYYTSSGNGYAQSRKSSAIYPASASTGHAAPSTERKPELLDKFVEAYDELQSYREGKPVIVDGHNLSIPAVAATARFGAAVVLDENPETHERVLQSRRVIVDKVSTQRSVYGVSTGFGGSADTRTSDPLQLGHALLQHQHVGVLPTQTESPLPALPLGDPLATTSMPEAWVRGAILIRMNSLIRGHSGVRWELIEKMGELLRENITPLVPLRGSISASGDLSPLSYIAGTLIGSPAIRVFDGPASYGARRILPSNIALANHGVAPIPLSSKEHLGILNGTAFSASVGALALNEAVHLSLLAQVCTAMGTEAMIGAVGSFDAFIHDTARPHPGQVEVARNVRTLLEDSQMAVKAEDEVHIAEDEGELRQDRYPLRTAAQFLGPQIEDILSAHETVTLECNSTTDNPLIDGETGTVHHGGNFQAMAVTNAMEKTRLAIHHIGKLLFAQATELINPMMNRGLPPNLAATDPSHNYFAKGVDIHLAAYVGELGFLASPVSSHIQSAEMHNQAVNSLALVSARYTISALDVLSLLTAAYLYVLCQALDLRAMHNDLQSSLSAIVRELLPKHFPSAAKRADALLPILERTIFRALNSSSSADCKARMVSVAASTTTPLVDFLSADAALASELANITAFRTELATRAADALTTLRTQYLEGARGAAPASKYLGKTRPVYEFVRVTLNVPMHGRENLHNFEMGPGVEDGIIGNNISTIYEAIRDGKMQNVVMQLVKSIKA
- pHCA g/L (30 C., cell conc 6 g/L, reaction time 19 h): 41.8 g/L
- pHCA g/L (35 C., cell conc 6 g/L, reaction time 15 h): 41.78 g/L
- pHCA g/L (40 C., cell conc 6 g/L, reaction time 7 h): 41.6 g/L
- pHCA g/L (43 C., cell conc 6 g/L, reaction time 6 h): 41.4 g/L
- pHCA g/L (45 C., cell conc 2 g/L, reaction time 19 h): 42.2 g/L
- pHCA g/L (45 C., cell conc 4 g/L, reaction time 10 h): 41.8 g/L
- pHCA g/L (45 C., cell conc 6 g/L, reaction time 6 h): 41 g/L
- pHCA g/L (48 C., cell conc 6 g/L, reaction time 6 h): 42 g/L
